Key:
[1] = Sedimentation equilibrium experiments (oligomerization state); type: physicochemical; settings: in solution; peptide 1 μM to 100 μM
Description: Oligomerization state was assessed by using methods standard in the art for performing sedimentation equilibrium experiments and for analysis of the resultant data. In that regard, sedimentation equilibrium experiments were performed over a concentration range of synthetic peptide (1 μM to 100 μM) as follows. Briefly, six-channel cells (12 mm optical path length) were used with an An-60 Ti rotor operated at 13,500 rpm, 18,000 rpm, 22,000 rpm, and 35,000 rpm) in an analytical ultracentrifuge at 4C. The cell radii were scanned using 0.001 cm steps with 10 averages/scan at 3 different wavelengths (235 nm, 240 nm, 280 nm). Data obtained with solutions containing synthetic peptide was analyzed using a single species model to determine a weight-averaged molecular weight (MW). Diagnostic plots of MW/ MW0 vs. rpm/rpm0 and MW vs. radial concentration were used to test for sample homogeneity. When systemic residuals or a MW higher than monomer molecular weight indicated the presence of self-association, associative models were investigated. The suitability of a model (goodness of fit) was judged by the trends observed in the residuals.

[2] = Helicity by circular dichroism; type: physicochemical; settings: at 10 μM, 25° C.
Description: (§1) Helicity was assessed by circular dichroism (“CD”) as follows. Briefly, CD spectra were obtained using a spectrometer equipped with a thermoelectric temperature controller. The spectra was obtained at 25° C. with 0.5 nanometer (nm) steps from 200 to 260 nm, with a 1.5 nm bandwith, and a typical averaging time of 4 seconds/step. After the cell/buffer blank was subtracted, spectra were smoothed using a third-order least-squares polynomial fit with a conservative window size to give random residuals. Raw ellipticity values were converted to mean residue ellipticity using standard methods, and plotted was the wavelength (from 200 to 260 nm) versus [θ]×10^−3 (degrees cm^2/dmol). Percent helicity values were then calculated using standard methods. Assessment of thermal stability was performed by monitoring the change in CD signal at 222 nm as temperature was raised in 2° C. steps, with 1 minute equilibration times. The thermal stability for each sample (e.g., synthetic peptide) was represented by the transition temperature (Tm) determined by the derivative method.

[3] = Thermal stability (Tm) by CD signal at 222 nm; type: physicochemical; settings: at 10 μM
Description: as §1

[4] = tested on: HR2 peptide (SEQ ID NO:33); test: Fluorescence polarization assay of binding to labeled HR2 peptide; set-up: species or system HIV-1; settings: ability to complex with HR2 peptide denoted as yes
Excerpt: These include a protein chip assay (using Biacore analysis) in which surface plasmon resonance is used to detect the binding, and kinetics thereof, between a synthetic peptide and an HR2 peptide; and a fluorescence polarization assay. In the fluorescence polarization assay, a detectable moiety comprising a fluorescent dye (e.g., rhodamine and/or fluorescein) was used to label HR2 peptide, and the assay was then allowed to proceed under sufficient conditions and for a sufficient period of time for labeled peptide to bind to HR1 peptide, or synthetic peptide (or trimer formed therefrom).

HIV IIIB = type: cell-based, HIV-1; settings: IIIB

CC[C@H](C)[C@H](NC(=O)CNC(=O)[C@H](Cc1ccccc1)NC(=O)[C@@H](NC(=O)[C@@H](NC(=O)[C@H](CC(C)C)NC(=O)[C@H](CCC(N)=O)NC(=O)[C@H](CC(C)C)NC(=O)[C@H](CC(C)C)NC(=O)[C@H](Cc1c[nH]cn1)NC(=O)[C@H](CCC(N)=O)NC(=O)[C@H](CCC(N)=O)NC(=O)[C@H](C)NC(=O)[C@H](CCC(=O)O)NC(=O)[C@@H](NC(=O)[C@H](C)NC(=O)[C@H](CCCNC(=N)N)NC(=O)[C@H](CC(C)C)NC(=O)[C@H](CC(C)C)NC(=O)[C@H](CC(N)=O)NC(=O)[C@H](CC(N)=O)NC(=O)[C@H](CCC(N)=O)NC(=O)[C@H](CCC(N)=O)NC(=O)[C@H](CCC(N)=O)NC(=O)[C@@H](NC(=O)[C@@H](NC(=O)CNC(=O)[C@H](CO)NC(=O)[C@H](CC(C)C)NC(=O)[C@H](CC(C)C)NC(=O)[C@H](CCC(N)=O)NC(=O)[C@H](CCCNC(=N)N)NC(=O)[C@H](C)NC(=O)[C@H](CCC(N)=O)NC(C)=O)[C@@H](C)CC)C(C)C)[C@@H](C)CC)[C@@H](C)O)C(C)C)C(=O)N[C@@H](CCCNC(=N)N)C(=O)N[C@@H](CCC(N)=O)C(=O)N[C@@H](CC(C)C)C(=O)N[C@@H](CCC(N)=O)C(=O)N[C@@H](C)C(=O)N[C@@H](CCCNC(=N)N)C(=O)N[C@H](C(=O)N[C@@H](CC(C)C)C(=O)N[C@@H](C)C(=O)N[C@H](C(=O)N[C@@H](CCC(=O)O)C(=O)N[C@@H](CCCNC(=N)N)C(=O)N[C@@H](Cc1ccc(O)cc1)C(=O)N[C@@H](CC(C)C)C(=O)N[C@@H](CCCCN)C(N)=O)C(C)C)[C@@H](C)CC [SEQ ID NO:31]
Oligomerization [1]: Trimer** | Helicity [2]: 86% | Stability Tm [3]: Tm 70 °C | HR2 peptide binding [4]: Yes | Antiviral activity against HIV IIIB IC50 (HIV IIIB): 0.93 µg/mL | Antiviral activity against HIV IIIB IC90 (HIV IIIB): 3.06 µg/mL

CC[C@H](C)[C@H](NC(=O)CNC(=O)[C@H](Cc1ccccc1)NC(=O)[C@@H](NC(=O)[C@@H](NC(=O)[C@H](CC(C)C)NC(=O)[C@H](CCC(N)=O)NC(=O)[C@H](CC(C)C)NC(=O)[C@H](CC(C)C)NC(=O)[C@H](Cc1c[nH]cn1)NC(=O)[C@H](CCC(N)=O)NC(=O)[C@H](CCC(N)=O)NC(=O)[C@H](C)NC(=O)[C@H](CCC(=O)O)NC(=O)[C@@H](NC(=O)[C@H](C)NC(=O)[C@H](CCCNC(=N)N)NC(=O)[C@H](CC(C)C)NC(=O)[C@H](CC(C)C)NC(=O)[C@H](CC(N)=O)NC(=O)[C@H](CC(N)=O)NC(=O)[C@H](CCC(N)=O)NC(=O)[C@H](CCC(N)=O)NC(=O)[C@H](CCC(N)=O)NC(C)=O)[C@@H](C)CC)[C@@H](C)O)C(C)C)C(=O)N[C@@H](CCCCN)C(=O)N[C@@H](CCC(N)=O)C(=O)N[C@@H](CC(C)C)C(=O)N[C@@H](CCC(N)=O)C(=O)N[C@@H](C)C(=O)N[C@@H](CCCNC(=N)N)C(=O)N[C@H](C(=O)N[C@@H](CC(C)C)C(=O)N[C@@H](C)C(=O)N[C@H](C(=O)N[C@@H](CCC(=O)O)C(=O)N[C@@H](CCCNC(=N)N)C(=O)N[C@@H](Cc1ccc(O)cc1)C(=O)N[C@@H](CC(C)C)C(=O)N[C@@H](CCCCN)C(=O)N[C@@H](CC(=O)O)C(=O)N[C@@H](CCC(N)=O)C(N)=O)C(C)C)[C@@H](C)CC [SEQ ID NO:43]
Oligomerization [1]: Trimer** | Helicity [2]: 94% | Stability Tm [3]: Tm 74 °C | HR2 peptide binding [4]: Yes | Antiviral activity against HIV IIIB IC50 (HIV IIIB): 1.34 µg/mL | Antiviral activity against HIV IIIB IC90 (HIV IIIB): 3.81 µg/mL

CC[C@H](C)[C@H](NC(=O)CNC(=O)[C@H](Cc1c[nH]c2ccccc12)NC(=O)[C@@H](NC(=O)[C@@H](NC(=O)[C@H](C)NC(=O)[C@H](CCC(N)=O)NC(=O)[C@H](CC(C)C)NC(=O)[C@H](C)NC(=O)[C@H](Cc1c[nH]cn1)NC(=O)[C@H](CCC(N)=O)NC(=O)[C@H](CCC(N)=O)NC(=O)[C@H](C)NC(=O)[C@H](CCC(=O)O)NC(=O)[C@@H](NC(=O)[C@H](C)NC(=O)[C@H](CCCNC(=N)N)NC(=O)[C@H](CC(C)C)NC(=O)[C@H](CC(C)C)NC(=O)[C@H](CC(N)=O)NC(=O)[C@H](CC(N)=O)NC(=O)[C@H](CCC(N)=O)NC(=O)[C@H](CCC(N)=O)NC(=O)[C@H](CCC(N)=O)NC(=O)[C@@H](NC(=O)[C@@H](NC(=O)CNC(=O)[C@H](CO)NC(=O)[C@H](CC(C)C)NC(=O)[C@H](CC(C)C)NC(=O)[C@H](CCC(N)=O)NC(=O)[C@H](CCCNC(=N)N)NC(=O)[C@H](C)NC(=O)[C@H](CCC(N)=O)NC(C)=O)[C@@H](C)CC)C(C)C)[C@@H](C)CC)[C@@H](C)O)C(C)C)C(=O)N[C@@H](CCCCN)C(=O)N[C@@H](CCC(N)=O)C(=O)N[C@@H](CC(C)C)C(=O)N[C@@H](CCC(N)=O)C(=O)N[C@@H](C)C(=O)N[C@@H](CCCNC(=N)N)C(=O)N[C@H](C(=O)N[C@@H](CC(C)C)C(=O)N[C@@H](C)C(=O)N[C@H](C(=O)N[C@@H](CCC(=O)O)C(=O)N[C@@H](CCCNC(=N)N)C(=O)N[C@@H](Cc1ccc(O)cc1)C(=O)N[C@@H](CC(C)C)C(=O)N[C@@H](CCCCN)C(=O)N[C@@H](CC(=O)O)C(=O)N[C@@H](CCC(N)=O)C(N)=O)C(C)C)[C@@H](C)CC [SEQ ID NO:34]
Oligomerization [1]: as a trimeric | Helicity [2]: 100% | Stability Tm [3]: Tm 71 °C | HR2 peptide binding [4]: Yes | Antiviral activity against HIV IIIB IC50 (HIV IIIB): 0.19 µg/mL | Antiviral activity against HIV IIIB IC90 (HIV IIIB): 0.62 µg/mL

CC[C@H](C)[C@H](NC(=O)[C@H](Cc1ccc(O)cc1)NC(=O)[C@H](CCCNC(=N)N)NC(=O)[C@H](CCC(=O)O)NC(=O)[C@H](CC(C)C)NC(=O)[C@H](C)NC(=O)[C@H](CC(C)C)NC(=O)[C@@H](NC(=O)[C@H](CCCNC(=N)N)NC(=O)[C@H](C)NC(=O)[C@H](CCC(N)=O)NC(=O)[C@H](CC(C)C)NC(=O)[C@H](CCC(N)=O)NC(=O)[C@H](CCCCN)NC(=O)[C@@H](NC(=O)CNC(=O)[C@H](Cc1c[nH]c2ccccc12)NC(=O)[C@@H](NC(=O)[C@H](CC(C)C)NC(=O)[C@H](CC(C)C)NC(=O)[C@H](CCC(N)=O)NC(=O)[C@@H](NC(=O)[C@H](CC(C)C)NC(=O)[C@H](Cc1c[nH]cn1)NC(=O)[C@H](CCC(N)=O)NC(=O)[C@@H](NC(=O)[C@H](C)NC(=O)[C@H](CCC(=O)O)NC(=O)[C@H](CC(C)C)NC(=O)[C@H](C)NC(=O)[C@H](CCCNC(=N)N)NC(=O)[C@H](CC(C)C)NC(=O)[C@@H](NC(=O)[C@H](CC(N)=O)NC(=O)[C@H](CC(N)=O)NC(=O)[C@H](CCC(N)=O)NC(=O)[C@H](CCC(N)=O)NC(=O)[C@H](CCC(N)=O)NC(=O)[C@@H](NC(=O)[C@H](CC(C)C)NC(=O)CNC(=O)[C@H](CO)NC(=O)[C@@H](NC(=O)[C@H](CC(C)C)NC(=O)[C@H](CCC(N)=O)NC(=O)[C@H](CCCNC(=N)N)NC(=O)[C@H](C)NC(=O)[C@H](CCC(N)=O)NC(C)=O)C(C)C)C(C)C)[C@@H](C)CC)[C@@H](C)O)C(C)C)C(C)C)C(C)C)C(C)C)C(=O)N[C@@H](CCCCN)C(N)=O [SEQ ID NO:41]
Oligomerization [1]: Aggregates | Helicity [2]: 73% | Stability Tm [3]: >97 °C | HR2 peptide binding [4]: Yes | Antiviral activity against HIV IIIB IC50 (HIV IIIB): 3.892 µg/mL | Antiviral activity against HIV IIIB IC90 (HIV IIIB): 14.53 µg/mL

From patent publication US20040091855A1, “Method for production of antivirals by use of HIV-derived HR1 peptides, and trimers formed therefrom” (priority 2002, published 2004)
